PubChem BioAssay AID1259343 (VanderVen Lab, College of Veterinary Medicine, Cornell …, 2017)
The list shows a part of the results, in another mix than the full data. Calls of active or inactive are those of the source. Cut-off read from the data, not from the text of the source: active = inhibition above about 50%; inactive = the rest.

Assay: Mycobacterium tuberculosis growth inhibition, primary screen (AID 1259343)
Conditions: at 10 µM, active compounds read high
For COc1cc(Br)c([N+](=O)[O-])nc1[N+](=O)[O-], the inhibition was active: 99.7%. In the case of CCOP1(=S)c2c(C)nn(-c3ccccc3)c2N=C(c2ccccc2)N1C1CC1 (stereo not drawn), the inhibition is reported as inactive: 9.06%. For CC[N+](CC)=C1SC2CS(=O)(=O)C(Br)C2(C)S1 (stereo not drawn), the inhibition was active: 103%.
